Results published in article PMC11522906.

Target: cytochrome b (Pfbc1 complex) (Plasmodium falciparum, UniProt Q02768)
Assay: bc1 activity in extracted parasite mitochondria (decylubiquinol-driven cytochrome c reduction); supported by V259L resistance selection and Y268S cross-resistance

Work on `O=c1[nH]c(N2CCOCC2)nc2c1CCN(Cc1ccc(Cl)cc1F)CC2` yielded an EC50 of 9.06 µM.
